{"sequences": {"note": "Protein sequences, listed by entry. Tags and fused reporters are not part of them.", "UniProt P08546, whole entry": "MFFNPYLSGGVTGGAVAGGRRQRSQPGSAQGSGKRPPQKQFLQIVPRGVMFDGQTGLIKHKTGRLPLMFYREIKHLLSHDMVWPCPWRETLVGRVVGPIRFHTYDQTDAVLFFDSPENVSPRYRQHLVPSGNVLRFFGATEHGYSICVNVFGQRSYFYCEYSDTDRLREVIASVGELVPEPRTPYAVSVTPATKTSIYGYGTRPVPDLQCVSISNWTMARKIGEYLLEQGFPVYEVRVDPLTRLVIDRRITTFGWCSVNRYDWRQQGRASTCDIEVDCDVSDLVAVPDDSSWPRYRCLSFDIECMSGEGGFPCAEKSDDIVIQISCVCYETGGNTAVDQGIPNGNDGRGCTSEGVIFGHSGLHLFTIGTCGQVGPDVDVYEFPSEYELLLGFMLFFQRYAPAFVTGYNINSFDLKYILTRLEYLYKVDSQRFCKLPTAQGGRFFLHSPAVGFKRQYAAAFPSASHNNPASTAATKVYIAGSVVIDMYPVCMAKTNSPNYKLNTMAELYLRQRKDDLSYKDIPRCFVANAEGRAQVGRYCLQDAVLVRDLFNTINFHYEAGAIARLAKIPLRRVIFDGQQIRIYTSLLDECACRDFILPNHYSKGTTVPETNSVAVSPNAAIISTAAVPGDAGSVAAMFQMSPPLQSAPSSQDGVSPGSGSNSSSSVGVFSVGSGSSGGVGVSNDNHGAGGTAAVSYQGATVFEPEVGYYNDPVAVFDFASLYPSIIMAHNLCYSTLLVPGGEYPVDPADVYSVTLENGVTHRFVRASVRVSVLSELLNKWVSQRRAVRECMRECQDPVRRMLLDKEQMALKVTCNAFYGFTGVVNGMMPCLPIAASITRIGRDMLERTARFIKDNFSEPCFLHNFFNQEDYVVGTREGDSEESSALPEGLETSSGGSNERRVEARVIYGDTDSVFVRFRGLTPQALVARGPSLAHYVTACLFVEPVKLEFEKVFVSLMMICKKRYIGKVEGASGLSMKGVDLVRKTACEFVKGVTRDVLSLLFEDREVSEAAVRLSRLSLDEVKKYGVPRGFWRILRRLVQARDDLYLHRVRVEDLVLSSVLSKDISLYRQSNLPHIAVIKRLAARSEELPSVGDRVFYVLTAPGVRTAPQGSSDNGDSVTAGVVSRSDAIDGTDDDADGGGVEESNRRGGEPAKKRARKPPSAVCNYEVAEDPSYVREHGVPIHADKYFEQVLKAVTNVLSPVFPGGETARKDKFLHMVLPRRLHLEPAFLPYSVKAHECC"}, "source": "patent US20240083910A1", "about": "“AMIDO-SUBSTITUTED PYRIDYL COMPOUNDS AND METHODS OF USE THEREOF FOR THE TREATMENT OF HERPESVIRUSES” (Merck Sharp & Dohme LLC, priority 2020, published 2024)", "key": {"HSV-1 Strain F": {"system": "HSV-1 Strain F", "assay": "Viral qPCR assay, HSV-1", "assay_type": "cell-based, Herpes Simplex Virus type 1", "details": "read-out: HSV1 Cell (EC50); Vero or MRC5 cells; 0.0005-0.004 pfu/cell; ~72 hrs; growth medium; viral genome copies by qPCR", "experimental": "(§1) MRC5 cells, Vero cells, and MeWo cells were obtained from ATCC, and were maintained at 37° C./5% CO2/90% relative humidity in Minimal Essential Medium with 10% fetal bovine serum, […] L-glutamine, 100 units/ml penicillin and 100 ug/ml streptomycin. Assay plates were prepared by dispensing compounds dissolved in DMSO into wells of 384 well collagen-coated plates using an ECHO acoustic dispenser. Each compound was tested in a 10-point, serial 3-fold dilution. Controls included uninfected cells and infected cells treated only with DMSO. Assays were initiated by mixing selected cells, in suspension, with virus, and dispensing 50 μl/well infected cells to pre-plated compounds. […] Levels of a viral gene and of the cellular control, PPIA (Thermo Fisher Assay ID=Hs04194521_s1), were measured in separate 10 ul qPCR assays using TaqMan® Gene Expression Master Mix (Applied Biosystems), and an 7900HT Fast Real-Time PCR System with 384-Well Block Module. 7-point, serial 10-fold dilutions of a plasmid standard were run on each plate to generate a standard curve, and genome copies numbers were calculated by plotting experimental Ct onto linear regression of the standard curve. […] Calculated % effects were fit using a 4-parameter algorithm, and EC50 was reported. […]"}, "VZV": {"system": "VZV", "assay": "Viral qPCR assay, VZV", "assay_type": "cell-based, varicella zoster virus", "details": "read-out: VZV Cell (EC50); MeWo or MRC5 cells; 0.04-0.1 pfu/cell; ~72 hrs; growth medium; viral genome copies by qPCR", "experimental": "as §1"}, "[1]": {"target": "Human cytomegalovirus DNA polymerase (Human cytomegalovirus, UniProt P08546)", "assay": "CMV polymerase assay (AlphaLISA)", "assay_type": "biochemical", "details": "read-out: CMV (IC50); HCMV polymerase 0.2 nM; 30 min pre-incubation; 60 min at 37° C.", "experimental": "Human cytomegalovirus and varicella zoster virus DNA polymerases were expressed via baculovirus vector in SF21 cells and purified. Heterodimeric nucleic acid substrate used in the herpesvirus polymerase reactions was generated by annealing a 59-mer template to a 17-mer digoxigenin-labeled primer. Polymerase (HCMV final concentration of 0.2 nM; VZV final concentration of 0.4 nM) was combined with an inhibitor compound or DMSO in assay buffer (10 mM HEPES, pH 7.5, 25 mM KCl, 25 mM NaCl, 5 mM MgCl2, 5% glycerol, 0.67 mg/ml bovine serum albumin, and 1 mM tris(2-carboxyethyl)phosphine), and this mixture was pre-incubated for 30 minutes at room temperature in 384-well microtiter plates. The polymerization reaction was initiated by the addition of template/primer substrate (final concentration: 1.6 nM), and dNTPs (final concentration: 24 nM dCTP, 24 nMdGTP, 16 nM dATP, 16 nM dTTP, and 0.8 nM biotin-dUTP). After 60 min incubation at 37° C., reactions were terminated with quench buffer (25 mM HEPES pH 7.5, 100 mM NaCl, 0.25% Tween-20, 12 mM EDTA, and 1 mg/ml bovine serum albumin). Incorporation of biotinylated UTP was detected with 2.5-5 ug/ml anti-DIG AlphaLISA acceptor beads and 5-10 ug/ml streptavidin AlphaLISA donor beads (PerkinElmer). […]"}, "HCMV Strain AD169": {"system": "HCMV Strain AD169", "assay": "Viral qPCR assay, HCMV", "assay_type": "cell-based, Human cytomegalovirus", "details": "read-out: CMV Cell (EC50); MRC-5 cells; 0.05-0.1 pfu/cell; ~72 hrs; growth media or 50% fetal bovine serum; viral genome copies by qPCR", "experimental": "as §1"}}}
{"compound": "COc1nc(C2CC(O)C2)c(O[C@H]2CCN3C(=O)OC[C@@H]3C2)cc1C(=O)NCc1ccc(Cl)cc1", "note": "(single isomer, unassigned) [Compound 74]", "values": [{"measurement": "EC50", "setting": "HSV-1 Strain F", "result": 0.42, "unit": "µM"}, {"measurement": "EC50", "setting": "VZV", "result": 0.657, "unit": "µM"}, {"measurement": "IC50", "setting": "[1]", "result": 0.018, "unit": "µM"}, {"measurement": "EC50", "setting": "HCMV Strain AD169", "result": 0.38, "unit": "µM"}]}
